Data from US20260069689A1, “ANTI-SARS-COV-2-SPIKE GLYCOPROTEIN ANTIBODIES AND ANTIGEN-BINDING FRAGMENTS” (Regeneron, published 2026).

The binders below were run against SARS-CoV-2 spike protein, wild-type (Wuhan-Hu-1) or D614G control (SARS-CoV-2) (assay: cell-based or functional assay).

Row | Binder | IC50 (pseudoparticle neutralization) [nM]
1 | mAb14291 (antibody, V domains shown) VH: EVQLVQSGAEVKKPGSTMKISCKISGYIFSDYYMHWVQQAPGKGLEWMGLVDPEDGETRYAEKFQGRVTITADTSTDTAYMELSSLRFEDTAVYYCATVGGSSGPWGETLFDHWGQGSLVTVSS VL: DIVMTQSPLSLPVTPGEPASISCRSSQSLLHSNGYNYINWYLQKPGQSPQLLMYLGSNRASGVPDRFSGSGSGTDSTLKISRVEAEDAGVYYCMQTRQTPYTFGQGTKLEIKR | 0.123
2 | mAb14293 (antibody, V domains shown) VH: QVQLVQSGAEVKKPGASVKVSCKASGYTFTNYYMHWVRQAPGQGLEWMGIINPSGGSTSYAQKFLGRVTMTRDTSTTTVYMELSSLRSEDTAVYFCARVENLPTKWDLLRKGFESGMDVWGQGTTVTVSS VL: EIVMTQSPATVSVSPGERATLSCRASQSVSSNLAWYQQKPGQAPRLLIYGASTRATGIPASFSGSGSGTEFTLTISSLQSEDFAVYYCQQYNNWPITFGPGTKVDIKR | 1.1
3 | mAb14312 (antibody) heavy: not shown light: QSVLTQPPSVSGAPGQRVTISCTGSSSNIGAGDDVHWYQQLPGTAPKLLIYGNSNRPSGVPDRFSGSKSGTSASLAITGLQAEDEADYYCQSYDSSLSGSVVFGGGTKLTVLGQPKAAPSVTLFPPSSEELQANKATLVCLISDFYPGAVTVAWKADSSPVKAGVETTTPSKQSNNKYAASSYLSLTPEQWKSHRSYSCQVTHEGSTVEKTVAPTECS | 0.0466
4 | mAb14316 (antibody, V domains shown) VH: QVQLVQSGAEVKKPGSSVKVSCKAPGGTFSTYAINWVRQAPGQGLEWMGRIVPFFGTTNYAQKFQGRVTITADESTSTAYMELSSLTSEDTAVYYCARGPRPFGELLYWGQGTLVTVSS VL: DIQMTQSPSSLSASVGDRVTITCQASQDISNYLNWYQQKPGKAPKLLIYDASNLETGVPSRFSGSGSGTDFTFTISSLQAEDIATYYCQQYDNLLFTFGPGTKVDIKR | 0.129
5 | mAb14295 (antibody, V domains shown) VH: QLQLQESGPGLVKPSETLSLTCTVSGGSISSSGHYWGWIRQSPGKGLDWIGSIYYSGSTYYNPSLKSRVTISVDTSKNQFSLKLNSVTAADTAVYFCARLEAYCSGDTCHYFYGLDVWGQGTTVTVSS VL: DIQMTQSPSSLSASVGDRVTITCRASQSINTYLNWYQQKPGKAPNLLIDGASSLQSGVPSRFSGSGSGTDFILTISSLRPEDFATYYCQQSYSIPLTFGGGTRVEIKR | 0.195
6 | mAb14313 (antibody, V domains shown) VH: EVQLVESGGGLVQPGRSLRLSCVASGFTFDDSAMHWVRQPPGKGLEWVSGISWNSGIIGYAESVKGRFIISRDNAKNSLFLHMRGLRPEDTAVYYCARDRLELSYYYYGMDVWGQGTTVTVSS VL: QSVLTQPPSASGTPGQRVTISCSGSSSNIGSNTVNWYQQFPGTAPRLLIYSNDQRPSGIPDRFSGSKSGTSASLAISGLQSEDEADYYCSTWDDSLNGAVFGGGTQLTVLG | 0.272
7 | mAb14294 (antibody, V domains shown) VH: EVQLVESGGGLVQPGGSLRLSCAASGFTFSNHWMDWVRQAPGKGLVWVSRINSDGSSTDYADSVRGRFTMSRDNAKNTLYLQMSSLRAEDTAVYYCAREGMIFGAVIIPGWYFDLWGRGALVTVSS VL: EIVLTQSPGTLSLSPGERATLSCRASQSVSSSQLAWYQQKPGQAPRLLIYGASSRATGIPDRFSGSGSGTDFTLTISRLEPEDFAVYYCQQYDSFGQGTKLEIKR | 0.0567
8 | mAb14292 (antibody, V domains shown) VH: EVQLVESGGGLVQPGGSLRLSCVASGFAFSTYEMNWVRQAPGKGLEWVSYISSSGSTIYYADSVKGRLTISRDNVKNSLYLQMNSLRVEDTAIYYCARDAIRNNDILTDPATFDPWGQGTLVTVSS VL: not shown | 0.0577
9 | mAb14290 (antibody, V domains shown) VH: QVQLVQSGAEVKKPGSSVKVSCKASGGSFSNYAISWVRQAPGQGLEWMGGIIPFFGTTNYAQKFQGRLTITADESTSTFYMELSSLGSEDTAVYYCAAGYSSGWYPSWFDPWGQGTLVTVSS VL: EIVLTQSPGTLSLSPGERATLSCRASQSVNNNYLAWYQQKPGQTPRLLIYGASSRATGIPDRFSGSGSGTDFTLTITRLEPEDFAVYHCQQYGRSPTTFGQGTRLEIKR | 1.2
